# Source: patent US20030091594A1
# Key:
# [1] = molecular target: CD4-induced (CD4i) monoclonal antibody 17b; experiment: SPR (BIACORE 2000), MAb 17b on the chip
# [2] = molecular target: CD4-induced (CD4i) monoclonal antibody 17b; experiment: SPR (BIACORE 2000), MAb 17b amine-coupled to CM5 chip, gp120 premixed with saturating sCD4 as analyte, 25 C
# [3] = molecular target: CD4-induced (CD4i) monoclonal antibody 48d; experiment: SPR (BIACORE 2000), MAb 48d amine-coupled to CM5 chip, gp120 premixed with saturating sCD4 as analyte, 25 C
substance,measurement,setting,value
8x gp120 pre-incubated with soluble CD4 (from UniProt P01730 26-394),fold increase of on-rate against 8x gp120 without sCD4,[1],2 fold
same,koff,[2],0.0009 s⁻¹
same,kon,[2],200000 M⁻¹ s⁻¹
same,Kd,[3],2 nM
